A mixed list of measured activities; the numbers were collected in NIAID ChemDB.

All rows: host cell toxicity; cells: MT-4; measure: CC50

CCn: concentration that lowers growth or viability of the cells by n%. Lines come from different laboratories, so protocols vary. An empty or dashed field is not shown.

smiles,read by,result
CC1(C)C=Cc2c(ccc(C3COc4cc(O)cc(O)c4C3=O)c2O)O1,,46 µg/mL
CC(C)(C)OC(=O)[C@@H]1CCCN1C[C@@H](O)[C@H](Cc1ccccc1)NC(=O)[C@H](CC(N)=O)NC(=O)OCc1ccccc1,MTT,>204 µg/mL
CC(Sc1nc2ncccc2n1-c1ccc(C2CC2)c2ccccc12)C(=O)Nc1ccc(C(N)=O)cc1Cl,MTT,2.01 µM
O=S(=O)(O)OCC1OC2OC3C(COS(=O)(=O)O)OC(OC4C(COS(=O)(=O)O)OC(OC5C(COS(=O)(=O)O)OC(OC6C(COS(=O)(=O)O)OC(OC7C(COS(=O)(=O)O)OC(OC8C(COS(=O)(=O)O)OC(OC9C(COS(=O)(=O)O)OC(OC1C(OS(=O)(=O)O)C2OS(=O)(=O)O)C(OS(=O)(=O)O)C9OS(=O)(=O)O)C(OS(=O)(=O)O)C8OS(=O)(=O)O)C(OS(=O)(=O)O)C7OS(=O)(=O)O)C(OS(=O)(=O)O)C6OS(=O)(=O)O)C(OS(=O)(=O)O)C5OS(=O)(=O)O)C(OS(=O)(=O)O)C4OS(=O)(=O)O)C(OS(=O)(=O)O)C3OS(=O)(=O)O,,>125 µg/mL
CONC(=O)c1ccc(NC(=O)CSc2nc3ncccc3n2-c2ccc(C3CC3)c3ccccc23)c(Cl)c1,MTT,1.05 µM
CC(C)=CCc1c(O)cc(O)c(CC=C(C)C)c1CCc1ccc(O)c(O)c1,,18 µg/mL
Cc1cc(C#N)cc(C)c1Oc1nc(Nc2ccc(C#N)cc2)nc(N)c1Br,MTT,2.18 µM
CCOC(=O)CCNP(=O)(OC[C@@H]1O[C@H](n2cc(C)c(=O)[nH]c2=O)C[C@H]1N=[N+]=[N-])OC[C@H]1O[C@@H](n2cc(C)c(=O)[nH]c2=O)C[C@@H]1N=[N+]=[N-],,>100 µM
Cc1cc(C)cc(S(=O)(=O)c2c(C(N)=O)[nH]c3ccc(Cl)cc23)c1,MTT,12 µM
Cc1cn([C@H]2C[C@H](N=[N+]=[N-])[C@@H](CO[Si](C)(C)C(C)(C)C)O2)c(=O)n(CC(=O)O)c1=O,,80 µM
CC(=O)c1ccc(NC(=O)CSc2nc3ncccc3n2-c2ccc(C3CC3)c3ccccc23)c(Br)c1,MTT,2.89 µM
CCc1cn([C@@H]2O[C@H](CO[Si](C)(C)C(C)(C)C)[C@@H](O)[C@H]2O[Si](C)(C)C(C)(C)C)c(=O)n(CC(=O)O)c1=O,,4.7 µM
NS(=O)(=O)c1ccc(NC(=O)CSc2nc3ncccc3n2-c2ccc(C3CC3)c3ccccc23)c(Br)c1,MTT,1.69 µM
c1cc(CN2CCCNCCNCCCNCC2)cc(CN2CCCNCCNCCCNCC2)c1,,>500 µg/mL
Cc1cn([C@@H]2O[C@H](CO[Si](C)(C)C(C)(C)C)[C@@H](O)[C@H]2O[Si](C)(C)C(C)(C)C)c(=O)n(CC(=O)O)c1=O,,18.8 µM
COc1c(CC=C(C)C)c(O)cc2c1[C@@H]1Oc3cc(O)c(CC=C(C)C)cc3[C@@H]1CO2,,8 µg/mL
c1cc(CN2CCCNCCNCCCNCC2)nc(CN2CCCNCCNCCCNCC2)c1,,>500 µg/mL
CC(C)=CC1Oc2cc(O)ccc2-c2oc3c4c(cc(O)c3c(=O)c21)OC(C)(C)C=C4,,21 µg/mL
Cc1cc(C#N)cc(C)c1Oc1nc(Nc2ccc(C#N)cc2)nc(N)c1Br,MTT,2.46 µM
C[C@@]12OC(=O)C[C@@H]1[C@H]1Oc3c(c(O)cc(O)c3[C@@H]3c4ccc(O)cc4O[C@H](c4ccc(O)cc4)[C@H]3O)C[C@H]1O2,MTT,>333 µM
CC(C)(C)[Si](C)(C)OC[C@H]1O[C@@H](n2ccc(=O)n(CC(=O)O)c2=O)[C@H](O[Si](C)(C)C(C)(C)C)[C@@H]1O,,21 µM
COc1ccc2c(c1)O[C@H]1c3ccc(O)cc3OC[C@@H]21,,53 µg/mL
Nc1ccn([C@H]2CC[C@@H](CO)O2)c(=O)n1,MTT,9.6 µg/mL
CC(C)(C)[Si](C)(C)OC[C@H]1O[C@@H](n2ccc(=O)n(CC(=O)O)c2=O)[C@H](O)[C@@H]1O[Si](C)(C)C(C)(C)C,,20 µM
O=C(O)C1=CC(=C(c2ccc(O)c(C(=O)O)c2)c2ccc(O)c(C(=O)O)c2)C=CC1=O,MTT,>250 µg/mL
Cc1cn([C@@H]2O[C@H](CO[Si](C)(C)C(C)(C)C)[C@@H](O)[C@H]2O[Si](C)(C)C(C)(C)C)c(=O)n(CC#N)c1=O,,6.7 µM
NC(N)=NCCC[C@H]1/C=C/[C@@H](Cc2ccc3ccccc3c2)C(=O)NCC(=O)N[C@H](Cc2ccc(O)cc2)C(=O)N[C@@H](CCCN=C(N)N)C(=O)N1,MTT,>100 µM
CCC(NC(=O)c1ccc(NC(=O)CSc2nc3ncccc3n2-c2ccc(C3CC3)c3ccccc23)c(Cl)c1)C(=O)O,MTT,0.55 µM
Cc1cn([C@H]2C=C[C@@H](CO[Si](C)(C)C(C)(C)C)O2)c(=O)n(CC(=O)O)c1=O,,52 µM
CCC(C)(NC(=O)c1ccc(NC(=O)CSc2nc3ncccc3n2-c2ccc(C3CC3)c3ccccc23)c(Cl)c1)C(=O)O,MTT,5.04 µM
C[C@H](CCC(=O)NCCS(=O)(=O)O)[C@H]1CC[C@H]2[C@@H]3CC[C@@H]4C[C@H](O)CC[C@]4(C)C3CC[C@]12C,MTT,>250 µg/mL
Cc1cn([C@@H]2O[C@H](CO[Si](C)(C)C(C)(C)C)[C@@H](O[Si](C)(C)C(C)(C)C)[C@H]2O)c(=O)n(CC(=O)ON)c1=O,,4.4 µM

Again, the opening 4 rows:

smiles,read by,result
CC1(C)C=Cc2c(ccc(C3COc4cc(O)cc(O)c4C3=O)c2O)O1,,46 µg/mL
CC(C)(C)OC(=O)[C@@H]1CCCN1C[C@@H](O)[C@H](Cc1ccccc1)NC(=O)[C@H](CC(N)=O)NC(=O)OCc1ccccc1,MTT,>204 µg/mL
CC(Sc1nc2ncccc2n1-c1ccc(C2CC2)c2ccccc12)C(=O)Nc1ccc(C(N)=O)cc1Cl,MTT,2.01 µM
O=S(=O)(O)OCC1OC2OC3C(COS(=O)(=O)O)OC(OC4C(COS(=O)(=O)O)OC(OC5C(COS(=O)(=O)O)OC(OC6C(COS(=O)(=O)O)OC(OC7C(COS(=O)(=O)O)OC(OC8C(COS(=O)(=O)O)OC(OC9C(COS(=O)(=O)O)OC(OC1C(OS(=O)(=O)O)C2OS(=O)(=O)O)C(OS(=O)(=O)O)C9OS(=O)(=O)O)C(OS(=O)(=O)O)C8OS(=O)(=O)O)C(OS(=O)(=O)O)C7OS(=O)(=O)O)C(OS(=O)(=O)O)C6OS(=O)(=O)O)C(OS(=O)(=O)O)C5OS(=O)(=O)O)C(OS(=O)(=O)O)C4OS(=O)(=O)O)C(OS(=O)(=O)O)C3OS(=O)(=O)O,,>125 µg/mL